# Data from US20240043504A1 (published 2024).
# B1: mAb10922 (antibody, V domains shown)
# VH: EVQLVESGGGLVQPGGSLRLSCAASGFTFSIYEMNWVRQAPGKGLEWVSYITSSGTTIYYADSVKGRFTISRDNAKNSLYLQMNSLRAEDTAVYYCASSSSSGYYFDYWGQGTLVTVSS
# VL: not shown
# B2: mAb10913 (antibody)
# heavy: not shown
# light: QSVLTQPPSVSAAPGQKVTISCSGSSSNIGNNYVSWYQQLPGTAPKLLIYDNNKRPSGIPDRFSGSKSGTSATLGITGLQTGDEADYYCGTWDSSLSVGRVFGTGTKVTVLGQPKAAPSVTLFPPSSEELQANKATLVCLISDFYPGAVTVAWKADSSPVKAGVETTTPSKQSNNKYAASSYLSLTPEQWKSHRSYSCQVTHEGSTVEKTVAPTECS
# B3: mAb10982 (antibody)
# heavy: not shown
# light: QSVLTQPPSVSGAPGQRVTISCTGSSSNIGTGYDVHWYQQLPGTAPKLLIYGNSNRPSGVPDRFSGSKSGTSASLAITGLQAEDEADYYCQSYDSSLSGYVVFGGGTKLTVLGQPKAAPSVTLFPPSSEELQANKATLVCLISDFYPGAVTVAWKADSSPVKAGVETTTPSKQSNNKYAASSYLSLTPEQWKSHRSYSCQVTHEGSTVEKTVAPTECS
# B4: mAb10984 (antibody)
# heavy: not shown
# light: QSVLTQPPSVSAAPGQKVTISCSGSSSNIGNNYVSWYQQLPGTAPKLLIYDNNKRPSGIPDRFSGSKSGTSATLGITGLQTGDEADYYCGTWDSSLSAGVFGGGTKLTVLGQPKAAPSVTLFPPSSEELQANKATLVCLISDFYPGAVTVAWKADSSPVKAGVETTTPSKQSNNKYAASSYLSLTPEQWKSHRSYSCQVTHEGSTVEKTVAPTECS
# B5: mAb10985 (antibody)
# heavy: not shown
# light: B3 light with T31A, Y100S, V101Y, G105T, L109V
# B6: mAb10935 (antibody, V domains shown)
# VH: EVQLVESGGGLVQPGGSLRLSCAASGFTVSSNYMSWVRQAPGKGLEWVSLIYSGGSTYYADSVKGRFTISRHNSKNTLYLQMNSLRSEDTAVYYCARVPLGDYYYGMDVWGQGTTVTVSS
# VL: DIQMTQSPSSLSASVGDRVTITCQASQDINKYLNWYQQKPGKAPKLLIYDASNLETGVPSRFSGSGSGTDFTFTISSLQPEDIATYYCQQSDNLPLTFGGGTKVEIKR
# B7: mAb10939 (antibody, V domains shown)
# VH: EVQLVESGGGLVQPGGSLRLSCAASGLTVSSNYMNWVRQVPGKGLEWVSVIYSGGSKFYVDSVKGRFTISRHNSKNTLYLQMNSLRPEDTAVYYCTRDAQYYGMDVWGQGTTVTVSS
# VL: DIQMTQSPSSLSASVGDRVTITCRASQSISTYLHWYQQKPGEAPKLLIYAASSLQSGVPSRFSGSGSGTDFTLTISSLQPEDFATYYCQQSYSTPPEIFGQGTKLEIKR
# B8: mAb10932 (antibody, V domains shown)
# VH: EVQLVESGGGLVQSGGSLRLSCAASGLTVSSNYMSWVRQAPGKGLEWVSVIYSGGSTFYSDSVKGRFTISRHNSKNTLYLQMNSLRAEDTAVYYCARARGDAFDIWGQGTMVTVSS
# VL: DIQMTQSPSSLSASVGDRVTITCQASQGISNYLNWYQQKPGKAPKLLISDASNLETGVPSRFSGSGSGTDFTFTISSLQPEDIATYYCQQYDNLRFFTFGPGTKVDIKR
# B9: mAb10922 (antibody, V domains shown)
# VH: B1 VH
# VL: not shown
# B10: mAb10930 (antibody, V domains shown)
# VH: EVQLVESGGGLVQPGRSLRLSCAASGFTFDDYAMYWVRQAPGKGLEWVSGISWNSGSIGYADSVKGRFTISRDNAKNSLYLQMNSLRAADTALYYCAKDKDWNSRGYYYYGMDVWGQGTTVTVSS
# VL: not shown
# B11: mAb10956 (antibody, V domains shown)
# VH: B7 VH with N35S, V40A, K57T, V60A, H72D, P87A, T96A, A99L, Q100I, Y101K
# VL: B6 VL with N30S, K31N, S91Y, L96P, T97H, G100P, E105D
# B12: mAb10966 (antibody, V domains shown)
# VH: EVQLVESGGGLVQPGGSLRLSCAASGLTVSSNYMSWVRQAPGKGLEWVSVIYSGGSTFYADSVKGRFTISRDNSKNTLYLQMNSLRPEDTAVYYCAREGRIAATGYGMDVWGQGTTVTVSS
# VL: B6 VL with N30S, K31N, E55G, G66R, Q89H, S91Y, L96Q, G100P, E105D
# B13: mAb10971 (antibody, V domains shown)
# VH: EVQLVESGGGLIQPGGSLRLSCAASGVTVSSNYMSWVRQAPGKGLEWVSVIYSGGSTFYSDSVKGRFSISRDNSKNTLYLQMNSLRAEDTAVYYCARDLYYYGMDVWGQGTTVTVSS
# VL: DIQLTQSPSFLSASVGDRVTITCRASQGISTYLAWYQQKPGKAPKLLIYAASTLQSGVPSRFSGSGSGTEFTLTISSLQPEDFATYYCQQLDSYPGLTFGGGTKVEIKR
# B14: mAb10982 (antibody, V domains shown)
# VH: EVQLVESGGGLVQPGGSLRLSCAASGLTVSSNYMSWVRQAPGKGLEWVSVIYSGGTTYYADSVKGRFTISRHNSKNTLSLQMNSLRAEDTAVYYCARGEGANYYGMDVWGQGTTVTVSS
# VL: QSVLTQPPSVSGAPGQRVTISCTGSSSNIGTGYDVHWYQQLPGTAPKLLIYGNSNRPSGVPDRFSGSKSGTSASLAITGLQAEDEADYYCQSYDSSLSGYVVFGGGTKLTVLG
# B15: mAb11006 (antibody, V domains shown)
# VH: EVQLVESGGGLVQPGGSLRLSCAASGFIVSRNYMSWVRQAPGKGLEWVSVIYSGGSTFYADSVKGRFTISRHNSKNTLYLQMNSLKAEDTAVYYCARELRGYFDYWGQGTLVTVSS
# VL: DIQLTQSPSFLSASVGDRVTITCWASQGISSYLAWYQQKPGKAPKLLIYAASTLQSGVPSRFSGSGSGTEFTLTISSLQPEDFATYYCQLLNSYPYTFGQGTKLEIKR
# B16: mAb11008 (antibody, V domains shown)
# VH: EVQLVESGGGLVQPGGSLRLSCAASGFTVSSNYMTWVRQAPGKGLEWVSVIYSGGSTFYADSVKGRFTISRHNSENTLYLQMNSLRAEDTAVYYCARDLAAAGTDYWGQGALVTVSS
# VL: B15 VL with E81D, L90H, P95L
# B17: mAb11004 (antibody, V domains shown)
# VH: QVQLVESGGGVVQPGRSLRLSCVASGFTFSIYGMDWVRQAPGKGLEWVAVISYDGSNKYYADSVKGRFTISRDNSKNTLYLQMNSLRPEDTAVYYCAKDREAAADAFDIWGQGTMVTVSS
# VL: DIQMTQSPSSVSASVGDRVTITCRASQGISSWLAWYQQKPGKAPKLLIYAASSLHSGVPSRFSGSGSGTDFTLTISSLQPEDFATYYCQQANSFRLTFGGGTKVEIKR
# B18: mAb11006 (antibody, V domains shown)
# VH: B15 VH
# VL: B15 VL
# B19: mAb11008 (antibody, V domains shown)
# VH: B16 VH
# VL: B15 VL with E81D, L90H, P95L
# B20: mAb10998 (antibody, V domains shown)
# VH: EVQLVESGGGLVHPGGSLRLSCAASGLTVSSNYMSWVRQAPGKGLEWVSVIYSGGSTYYADSVKGRFTISRHNSKNTLFLQMNSLRAEDTAVYYCARDRPITGTTLDVWGQGTTVTVSS
# VL: B7 VL with S12F, T31S, H34N, E42K, T85F, S91T, E97I, I98T, K104R
# Biological target: receptor binding domain (RBD) portion of the SARS-CoV-2 Spike protein (amino acids Arg319-Phe541) ex (SARS-CoV-2)
# Experiment: not given
row,Binder,IC50 [nM]
1,B1,0.0665

# Biological target: human FcγR3a 176Val allotype receptor (human, UniProt P08637 17-254)
# Experiment: cell-based or functional assay
row,Binder,"ADCC Mean RLU (surrogate reporter assay, spike-expressing target cells) [RLU]"
1,B2,11500
2,B3,7900
3,B4,6780
4,B5,5840

# Biological target: SARS-CoV-2 spike protein (S-wt, Wuhan-Hu-1, NCBI Accession Number MN908947.3) on VSV pseudoparticles (SARS-CoV-2, UniProt P0DTC2 14-1273)
# Experiment: cell-based or functional assay
row,Binder,"IC50 (M), neutralization [M]"
1,B6,2.21e-10
2,B7,2.36e-10
3,B8,3.58e-10
4,B9,1.21e-10
5,B10,1.07e-09
6,B11,1.28e-10
7,B12,1e-10
8,B13,1.55e-10
9,B14,3.69e-10

# Biological target: SARS-COV-2 RBD extracellular domain expressed with a C-terminal mouse IgG2a (SARS-COV-2 RBD-mFc) (SARS-CoV-2)
# Experiment: SPR, captured mAb, RBD-mFc in solution, 37 C
row,Binder,30 nM Ag Bound (RU)
1,B1,97
2,B15,87
3,B16,82

# Biological target: SARS-CoV-2-S-RBD-mmH (RBD of SARS-CoV-2 spike, amino acids 319-541, with a 6x histidine tag and two (SARS-CoV-2))
# Experiment: ELISA, RBD-mmH coated, supernatant 1:40, a-mFc detection
row,Binder,Binding Signal (absorbance at 450 nm)
1,B17,2.91
2,B18,2.62
3,B19,2.91
4,B20,2.83

# Residue numbers refer to the chain shown, from its start.
